Compound potency records, mixed from different reports. Data source: NIAID ChemDB in PubChem.

All rows: growth or infection tests; agent: HIV-1; measure: EC95

An empty or dashed field is not shown. ECn is the concentration giving n% inhibition of infection, replication or growth. Lines come from different laboratories, so protocols vary.

Cc1cccc(C)c1-n1nnnc1SCC(=O)Nc1ccccc1[N+](=O)[O-] ; cell line: MT-4 ; read by: p24 ; result: <10 µM
CCc1cc(CCc2nc3c(Cl)ccc(Cl)c3o2)c(=S)[nH]c1C ; strain: IIIB ; cell line: H9 ; read by: p24 ; result: 0.1 µM
CCCc1nnc(C[C@H](C[C@H](O)CN2CCN(Cc3ccc(-c4ccc(Cl)cc4)o3)C[C@H]2C(=O)NCC(F)(F)F)C(=O)N[C@H]2c3ccccc3OC[C@H]2O)o1 ; strain: NL4-3 WT ; cell line: MT-4 ; read by: p24 ; result: ≤0.008 µM
CC(C)CN(C[C@@H](O)[C@H](Cc1ccccc1)NC(=O)[C@H](CC(N)=O)NC(=O)c1ccc2ccccc2n1)C(=O)NC(C)(C)C ; strain: NL4-3 ; mutations: PR-V82T ; cell line: MT-4 ; read by: p24 ; result: 0.1 µM
CCc1cc(NCc2nc3c(Cl)ccc(Cl)c3o2)c(=O)[nH]c1C ; strain: IIIB ; cell line: H9 ; read by: p24 ; result: 0.1 µM
CCCc1nnc(C[C@H](C[C@H](O)CN2CCN(C(C)(C)c3ncc(-c4ccc(F)cc4)o3)C[C@H]2C(=O)NCC(F)(F)F)C(=O)N[C@H]2c3ccccc3OC[C@H]2O)o1 ; strain: V-18 Clinical isolate ; mutations: PR-L10I M36I N37D M46I R57K L63P A71V G73S I84V L90M I93L ; cell line: MT-4 ; read by: p24 ; result: 0.063 µM
O=C1N(Cc2ccc(CO)cc2)[C@H](Cc2ccccc2)[C@H](O)[C@@H](O)[C@@H](Cc2ccccc2)N1Cc1ccc(CO)cc1 ; strain: NL4-3 ; mutations: PR-M46I V82T ; cell line: MT-4 ; read by: p24 ; result: 0.4 µM
CC(C)(c1ncc(-c2ccc(F)cc2)o1)N1CCN(C[C@@H](O)C[C@@H](Cc2nnco2)C(=O)N[C@H]2c3ccccc3OC[C@H]2O)[C@H](C(=O)NCC(F)(F)F)C1 ; strain: V-18 Clinical isolate ; mutations: PR-L10I M36I N37D M46I R57K L63P A71V G73S I84V L90M I93L ; cell line: MT-4 ; read by: p24 ; result: 0.125 µM
Cc1cc(C)c(-n2nnnc2SCC(=O)Nc2cccc(Cl)c2F)c(C)c1 ; cell line: MT-4 ; read by: p24 ; result: <10 µM
CC(C)(c1ncc(-c2ccc(F)cc2)o1)N1CCN(C[C@@H](O)C[C@@H](Cc2nnc(-c3ccccc3)o2)C(=O)N[C@H]2c3ccccc3OC[C@H]2O)[C@H](C(=O)NCC(F)(F)F)C1 ; strain: NL4-3 WT ; cell line: MT-4 ; read by: p24 ; result: ≤0.008 µM
Cc1cc(SC2=C(O)CC(CCc3cccc(O)c3)(C3CCCC3)OC2=O)c(C(C)(C)C)cc1CO ; cell line: CEM ; read by: cytopathic effect / XTT ; result: 0.6 µM
O=C(N[C@H]1c2ccccc2OC[C@H]1O)[C@H](Cc1nnc(-c2ccccc2)o1)C[C@H](O)CN1CCN(Cc2ccc(-c3ccc(Cl)cc3)o2)C[C@H]1C(=O)NCC(F)(F)F ; strain: V-18 Clinical isolate ; mutations: PR-L10I M36I N37D M46I R57K L63P A71V G73S I84V L90M I93L ; cell line: MT-4 ; read by: p24 ; result: 0.25 µM
O=C(CSc1nnnn1-c1cccc2ccccc12)Nc1ccccc1 ; cell line: MT-4 ; read by: p24 ; result: <10 µM
CCc1cc(NCc2nc3c(C)ccc(C)c3o2)c(=O)[nH]c1C ; strain: IIIB ; cell line: H9 ; read by: p24 ; result: 0.2 µM
CC(C)(c1ncc(-c2ccc(Cl)cc2)o1)N1CCN(C[C@@H](O)C[C@@H](Cc2nnc(-c3ccccc3)o2)C(=O)N[C@H]2c3ccccc3OC[C@H]2O)[C@H](C(=O)NCC(F)(F)F)C1 ; strain: V-18 Clinical isolate ; mutations: PR-L10I M36I N37D M46I R57K L63P A71V G73S I84V L90M I93L ; cell line: MT-4 ; read by: p24 ; result: 0.125 µM
Cc1cc(C)c(-n2nnnc2SCC(=O)Nc2ccccc2C(F)(F)F)c(C)c1 ; cell line: MT-4 ; read by: p24 ; result: <10 µM
CC(C)=CCN1c2cc(Cl)cc3[nH]c(=S)n(c23)C[C@@H]1C ; mutations: RT-L74V ; cell line: MT-4 ; result: 0.05 µM
Cc1cc(C)c(-n2nnnc2SCC(=O)Nc2cc(C)ccc2Cl)c(C)c1 ; cell line: MT-4 ; read by: p24 ; result: <10 µM
CCc1cc(CCc2nc3c(Cl)ccc(Cl)c3o2)c(=O)[nH]c1C ; strain: A17 ; mutations: RT-K103N Y181C ; cell line: H9 ; read by: p24 ; result: 1.5 µM

2 of the rows above, restated:

| structure | strain | mutations | cell line | read by | result |
|---|---|---|---|---|---|
| CCCc1nnc(C[C@H](C[C@H](O)CN2CCN(C(C)(C)c3ncc(-c4ccc(F)cc4)o3)C[C@H]2C(=O)NCC(F)(F)F)C(=O)N[C@H]2c3ccccc3OC[C@H]2O)o1 | V-18 Clinical isolate | PR-L10I M36I N37D M46I R57K L63P A71V G73S I84V L90M I93L | MT-4 | p24 | 0.063 µM |
| Cc1cc(C)c(-n2nnnc2SCC(=O)Nc2ccccc2C(F)(F)F)c(C)c1 |  |  | MT-4 | p24 | <10 µM |